Measured values from several laboratories, pooled; numbers as filed in NIAID ChemDB.

Common to all: enzyme or target tests; agent: HIV-1; protein: Integrase; read-out: IC50

Rows are shuffled and stem from different studies. ICn: concentration for n% inhibition. Blank or dashed fields: not listed here.

SMILES | strain or isolate | mutations | read by | setting | result
O=C1/C(=C/c2ccc(Cl)c(Cl)c2)COC/C1=C\c1ccc(Cl)c(Cl)c1 | - | - | strand transfer | - | 9 µM
Oc1ccc(/C=C/c2ncc3cccc(O)c3n2)cc1O | - | - | 3′ processing | - | 57.1 µM
O=C1/C(=C/c2cc(O)c(O)c(O)c2)CCC/C1=C\c1cc(O)c(O)c(O)c1 | - | - | disintegration | - | 1.6 µM
CSCC[C@H](NCC(=O)Nc1ccc(S(=O)(=O)c2ccc(NC(=O)CN[C@@H](CCSC)C(=O)O)cc2)cc1)C(=O)O | - | - | 3′ processing | - | >100 µM
CC1=c2c(oc3cc(O)c(Nc4c(C)cc(O)cc4O)c(C)c23)=CC(=O)C1=Nc1c(C)cc(O)cc1O | - | - | 3′ processing | - | 5 µM
O=C1/C(=C/c2cc(O)c(O)c(O)c2)COC/C1=C\c1cc(O)c(O)c(O)c1 | - | - | 3′ processing | - | 6 µM
CCOC(=O)C(C(=O)OCC)c1cn(S(=O)(=O)c2ccc(C)cc2)c2ccc(NC(=O)c3ccc(OC)cc3)cc12 | - | - | strand transfer / fluorescence | - | >25 µM
O=C(O)[C@@H](CS(=O)(=O)c1ccc(C(F)(F)F)cc1)NC(=O)C1(c2ccc3ccccc3c2)CCN(Cc2ccc3ccccc3c2)CC1 | NL4-3 | - | strand transfer / fluorescence | pseudotyped | 55.99 µM
COc1cc(Oc2c(O)c(C)c(OC)c(C(C)=O)c2O)c(C(C)=O)c(O)c1C | - | - | 3′ processing | - | >250 µM
CCN1C/C(=C\c2ccc(O)c([N+](=O)[O-])c2)C(=O)/C(=C/c2ccc(O)c([N+](=O)[O-])c2)C1 | - | - | strand transfer | - | >100 µM
O=C(O)C(=O)/C=C(\O)c1cn(Cc2cc(F)ccc2F)c2ccc(F)cc12 | - | Y143R | strand transfer / fluorescence | - | 5.7 µM
CC(C)(C)OC(=O)C1[C@@H]2O[C@@]3(CCC[C@H]13)C(=O)c1cc3c(cc12)OCO3 | - | - | 3′ processing | - | >250 µM
COc1cccc2cnc(/C=C/c3ccc(O)cc3)nc12 | - | - | 3′ processing | - | >>200 µM
O=[N+]([O-])c1cccc(S(=O)(=O)c2ccc(F)c([N+](=O)[O-])c2)c1 | - | - | strand transfer | - | >100 µM
CCOC(=O)C(C(=O)OCC)c1cn(S(=O)(=O)c2ccc(C)cc2)c2ccc(NC(=O)c3ccc(F)cc3Cl)cc12 | - | - | strand transfer / fluorescence | - | >25 µM
O=S(=O)(c1ccc(F)cc1)c1ccc(F)cc1 | - | - | 3′ processing | - | >100 µM
Cc1ccc(S(=O)(=O)n2cc(C(C(=O)O)C(=O)O)c3cc(NC(=O)c4ccc(F)cc4)ccc32)cc1 | - | - | strand transfer / fluorescence | - | >25 µM
COc1cccc2cnc(/C=C/c3ccc(O)c(O)c3)nc12 | - | - | 3′ processing | - | >>200 µM
O=C(O)[C@H](Cc1ccccc1)NC(=O)C1(c2ccc(-c3ccccc3)cc2)CCN(Cc2ccc3ccccc3c2)CC1 | NL4-3 | - | strand transfer / fluorescence | pseudotyped | >500 µM
CCOC(=O)C(C(=O)OCC)c1cn(S(=O)(=O)c2ccc(C)cc2)c2ccc(NC(=O)c3cc(F)c(F)c(F)c3)cc12 | - | G140S | strand transfer / fluorescence | - | >25 µM
Oc1ccc(/C=C/c2ncc3ccccc3n2)cc1O | - | - | 3′ processing | - | 20.8 µM
[N-]=[N+]=NCc1cccc(C(=O)CC(=O)C(=O)O)c1 | - | - | strand transfer | - | 0.33 µM
O=C(O)[C@@H](CS(=O)(=O)c1ccc([N+](=O)[O-])cc1)NC(=O)C1(c2ccc3ccccc3c2)CCN(Cc2ccc3ccccc3c2)CC1 | NL4-3 | - | strand transfer / fluorescence | pseudotyped | 55.99 µM
O=C1c2c(O)cc(O)c(O)c2C(=O)c2c(O)cc(O)c(O)c21 | - | - | 3′ processing | - | 1.3 µM
O=C(O)C(C(=O)O)c1c[nH]c2ccc([N+](=O)[O-])cc12 | - | G140S | strand transfer / fluorescence | - | 20.7 µM
COc1ccc(/C=C/c2ncc3cccc(OC)c3n2)cc1O | - | - | 3′ processing | - | >>200 µM
CC1(C)OC(=O)/C(=C/C(=O)c2cn(Cc3ccc(F)cc3)c3ccc(Br)cc23)O1 | - | G140S | strand transfer / fluorescence | - | 11.4 µM
O=NNc1ccc(S(=O)(=O)c2ccc(NN=O)cc2)cc1 | - | - | 3′ processing | - | 6.5 µM
O=C1C2C3CCC(O3)C2C(=O)N1N1C(=O)C2C3CCC(O3)C2C1=O | - | - | 3′ processing | - | >250 µM
O=[N+]([O-])c1cccc([N+](=O)[O-])c1S(=O)(=O)c1ccccc1 | - | - | strand transfer | - | >100 µM
COc1cc(O)c2c(c1O)C(=O)c1cc(C)ncc1C2=O | - | - | 3′ processing | - | 42 µM
Cc1ccc(S(=O)(=O)n2cc(C(C(=O)O)C(=O)O)c3cc(NC(=O)c4cccc(C)c4O)ccc32)cc1 | - | G140S | strand transfer / fluorescence | - | 23.8 µM
Oc1ccc(/C=C/c2ncc3cccc(O)c3n2)cc1 | - | - | 3′ processing | - | >>200 µM
O=C(O)C(=O)/C=C(\O)c1cn(Cc2ccc(F)cc2)c2ccc(Br)cc12 | - | Y143R | strand transfer / fluorescence | - | 0.37 µM
O=[N+]([O-])c1ccccc1S(=O)(=O)c1ccc(Cl)cc1 | - | - | strand transfer | - | >100 µM

3 of the rows above, restated:

{"SMILES": "O=[N+]([O-])c1cccc([N+](=O)[O-])c1S(=O)(=O)c1ccccc1", "read by": "strand transfer", "result": ">100 µM"}
{"SMILES": "CC1=c2c(oc3cc(O)c(Nc4c(C)cc(O)cc4O)c(C)c23)=CC(=O)C1=Nc1c(C)cc(O)cc1O", "read by": "3′ processing", "result": "5 µM"}
{"SMILES": "COc1cccc2cnc(/C=C/c3ccc(O)cc3)nc12", "read by": "3′ processing", "result": ">>200 µM"}